Experimental data from article PMC4387594, “Pentacycloundecane lactam vs lactone norstatine type protease HIV inhibitors: binding energy calculations and DFT study” (Journal of Biomedical Science, 2015).

Target: T1, wild type C-South African (C-SA) HIV-1 protease (Human immunodeficiency virus type 1 group M subtype B, UniProt P12497, H557K/I503V/I581L/L507I/L577M/M524I/R529K/T500S)
T1 construct: Over-expression, extraction and purification of the C-SA protease and in vitro HIV-1 protease activity were reported in our earlier publications; made in house
Test: in vitro HIV-1 protease inhibition (C-SA PR)
Format: biochemical, HIV-1 subtype C
Source text: Over-expression, extraction and purification of the C-SA protease and in vitro HIV-1 protease activity were reported in our earlier publications. Genetic diversity among HIV-1 subtypes ranges between 25 and 35% at the nucleotide level and variation within subtypes vary from 15 to 20% [48, 49]. Thus, both the high mutation rate within the HIV PR and the genetic variation of HIV is an ongoing challenge toward finding a potent protease inhibitor (PI) with reasonable inhibition of various HIV subtypes.
The HIV-1 subtype C PR that predominates in South Africa (C-SA PR) is defined as the consensus subtype C PR [51]. This C-SA PR contains eight polymorphic sites (T12S, I15V, L19I, M36I, R41K, H69K, L89M, and I93L) in relation to the wild-type subtype B HIV-1 PR [52]. Multiple sequence alignment of the C-SA PR, subtype B PR, subtype B-MDR PR, and subtype C-2R8N PR confirmed that subtype C of South African HIV-1 protease is structurally very close to the rest of the HIV-1 proteases.
The procedures followed were the same as reported before ^12,13.

**Q.** With `Cc1cccc(C)c1OCC(=O)N[C@@H](Cc1ccccc1)[C@@H](O)C[C@H](Cc1ccccc1)NC(=O)[C@H](C(C)C)N1CCCNC1=O` [Lopinavir, reference compound] as the molecule, how does the IC50 read?
**A.** Its IC50 is 25 ± 1.4 nM.
